From ChEMBL document CHEMBL4152205, “Therapeutic journery of nitrogen mustard as alkylating anticancer agents: Historic to future perspectives” (2018)
pIC50: −log10 of the molar value.

Columns and labels:
DU-145 = test: Cytotoxicity against human DU145 cells assessed as reduction in cell viability
U-87 MG = test: Cytotoxicity against human U87 cells assessed as reduction in cell viability after 3 days by MTT assay; conditions: u-87mg atcc
COLO 205 = test: Cytotoxicity against human COLO205 cells assessed as reduction in cell viability after 3 days by MTT assay
A549 = test: Cytotoxicity against human A549 cells assessed as reduction in cell viability after 3 days by MTT assay
IMR-32 = test: Cytotoxicity against human IMR32 cells assessed as reduction in cell viability after 3 days by MTT assay

Row | Compound | CC50 (DU-145) | pIC50 (U-87 MG) | pIC50 (COLO 205) | pIC50 (A549) | pIC50 (IMR-32)
1 | CCCCCCCCCCCCCCCCOC(COC1O[C@H](CN)[C@@H](O)[C@H](O)[C@H]1NC(=O)CCCc1ccc(N(CCCl)CCCl)cc1)OC (some centres undefined) | 6 µM |  |  |  | 
2 | COC(=O)C1=C(C)NC(C)=C(C(C)=O)C1c1ccc(N(CCCl)CCCl)cc1 (centres undefined) |  | 4.13 to 4.63 | 4.13 to 4.63 | 4.13 to 4.63 | 4.13 to 4.63
3 | COC(=O)C1=C(C)NC(C)=C(C(=O)OC)C1c1ccc(OCCN(CCCl)CCCl)cc1 |  | 4.13 to 4.63 | 4.13 to 4.63 | 4.13 to 4.63 | 4.13 to 4.63
